## Share of PSTVd loop 6 variants by leaf site

Reference: Wu et al. 2024, doi:10.1371/journal.ppat.1012142.

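A pool of all variants was put on leaves of three Nicotiana benthamiana plants. Progeny were sequenced from the inoculated region (day 5), the margin of the inoculated leaf (day 10) and systemic leaves (day 12).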

Region: loop 6 of PSTVd (intermediate strain), upper and lower strand joined, each 5' to 3', the first 5 letters being the upper strand, closing pairs included. Wild type: UGACCGCGAG. Varied positions (N): UNNNCGNNNG.

Numbers give reads per thousand; 0 = not seen among the reads, higher = more abundant. Each value is the mean of three plants. "Pool" is the share in the plasmid pool used as inoculum, on the same scale. The inoculated region was read from the minus strand, the other sites from the plus strand. IR is the inoculated region, LM the leaf margin, Sys the systemic leaves.

sequence,pool,IR,LM,Sys
UCUUCGGAGU,0.0261,0,0,0
UACACGUUCG,0.105,0.0892,0.0261,0
UUGUCGCUCG,0.327,0.113,0,0
UGGGCGGCUG,0.196,0.0478,0.00773,0
UCGCCGGACG,0.235,0.0881,0.00773,0
UUAGCGGCCG,0.170,0.0661,0.00773,0
UGCCCGCUUG,0.248,0.118,0,0
UCUUCGCAGG,0.235,0.130,0.0168,0
UCAACGCGGG,0.222,0.0833,0.0155,0
UGGACGCCGG,0.222,0.0596,0.00773,0
UGUACGCCUG,0.261,0.0785,0,0
UCGCCGUCGG,0.196,0.119,0,0
UAGGCGAUGG,0.431,0.0827,0.0169,0.00684
UUCACGACAG,0.196,0.0601,0,0
UGCACGUCGG,0.235,0.0530,0.00920,0
UUUACGAUUG,0.183,0.107,0.00773,0
UGGGCGUGGG,0.157,0.0965,0,0
UCGUCGAUAG,0.327,0.0998,0.0633,0
UAGACGCAAG,0.0915,0.120,0,0
UCCGCGACAG,0.301,0.0963,0.00920,0
UGGUCGGCGG,0.118,0.0712,0,0
UCGACGACAG,0.248,0.149,0.00773,0
UAGUCGGACC,0.0131,0,0,0
UGACCGUGCG,0.209,0.179,0.283,0.0869
UCCUCGGGGG,0.105,0.0723,0.00773,0
UCCACGCCCG,0.209,0.0779,0.00773,0
UGAGCGAUCG,0.314,0.101,0,0
UAACCGCCGG,0.183,0.0900,0.00773,0
UAUACGACAG,0.222,0.125,0.0247,0
UCCCCGGCAG,0.288,0.0769,0.0176,0
UCGCCGAGCG,0.222,0.0827,0.00773,0
UUAUCGCGGG,0.235,0.118,0.0184,0
UGACAGACAG,0.0131,0,0,0
UAUUCGUGGG,0.183,0.0824,0,0
UGCGCGACCG,0.222,0.107,0,0
UACUCGGUGG,0.327,0.0655,0,0
UGCUCGGGUG,0.209,0.0710,0,0
UCGCCGUGCG,0.157,0.0658,0,0
UCACCGCAUG,0.0784,0.124,0.0247,0
UUUACGAUCG,0.275,0.0889,0,0
UUCGCGUAAG,0.105,0.0769,0.00920,0
UAUCCGUCGG,0.235,0.0838,0,0
UUCCCGCCAG,0.222,0.0657,0,0
UCCGCGUUAG,0.484,0.112,0.0169,0.00684
UCAGCGCAAG,0.105,0.139,0,0
UCCCCGCAUG,0.261,0.124,0.00841,0.00684
UGUUCGGAGG,0.157,0.0540,0.0184,0
UUGCCGGAAG,0.209,0.0774,0.00920,0
UAGUCGCAUG,0.144,0.0833,0.00773,0
UUGACGCAAG,0.118,0.199,0.00773,0
UACCCGACGG,0.366,0.0656,0.0309,0
UCAUCGCGCG,0.170,0.0949,0,0
UCUUCGACGG,0.248,0.0420,0.00773,0
UCACCGCGCG,0.118,0.631,0.0831,0.0474

The first 7 entries again:

{"sequence": "UCUUCGGAGU", "pool": "0.0261", "IR": 0, "LM": 0, "Sys": 0}
{"sequence": "UACACGUUCG", "pool": "0.105", "IR": 0.0892, "LM": 0.0261, "Sys": 0}
{"sequence": "UUGUCGCUCG", "pool": "0.327", "IR": 0.113, "LM": 0, "Sys": 0}
{"sequence": "UGGGCGGCUG", "pool": "0.196", "IR": 0.0478, "LM": 0.00773, "Sys": 0}
{"sequence": "UCGCCGGACG", "pool": "0.235", "IR": 0.0881, "LM": 0.00773, "Sys": 0}
{"sequence": "UUAGCGGCCG", "pool": "0.170", "IR": 0.0661, "LM": 0.00773, "Sys": 0}
{"sequence": "UGCCCGCUUG", "pool": "0.248", "IR": 0.118, "LM": 0, "Sys": 0}

The authors trace changes outside the varied positions to PCR and sequencing errors or to mutation in the plant; presence does not show that a variant is infectious alone. For reference, wild type rose from 20.7 per thousand in the pool to 195, 198, 203 (inoculated region), 629, 591, 734 (leaf margin) and 942, 870, 868 (systemic leaves). With 36,220-57,551 reads a sample, very low values are single reads.